The source of these data is article PMC10041525, “New Dual Inhibitors of Bacterial Topoisomerases with Broad-Spectrum Antibacterial Activity and In Vivo Efficacy against Vancomycin-Intermediate Staphylococcus aureus” (Journal of Medicinal Chemistry, 2023).

The format of this series is physicochemical. Conditions: solubility assay. The protocol: For the PBS, 2.38 g of disodium hydrogen phosphate dodecahydrate, 0.19 g of potassium dihydrogen phosphate, and 8.0 g of sodium chloride were added to distilled water (900 mL), and the solution was mixed overnight. […] Samples were prepared by weighing the exact mass of solid compounds (about 1 mg), and then, the appropriate volume of PBS was added to reach the final concentration of ∼1 mg/mL. […] The supernatant was diluted 3× with a 1:1 mixture of 0.1% TFA in water and acetonitrile and analyzed by HPLC. For the 7-point calibration curves, concentrated stock solutions of the compounds were prepared at concentrations of 10 and 0.5 mM in DMSO, which were diluted with a 1:1 mixture of 0.1% TFA in water and acetonitrile to the desired final concentrations and analyzed by HPLC. Results are given in μM as an average value of two independent experiments. For details on calibration curves, concentrations, analytical method, and HPLC method, see the Supporting Information.
Thermodynamic solubility assay
To determine thermodynamic solubility of compounds in PBS, calibration curves for the assayed compounds were prepared using seven concentrations. First, DMSO stock solutions of compounds at 10 mM and 0.5 mM concentration were prepared and then diluted (0.1% TFA in […]
Quality control (QC) samples were diluted from stock solutions with a 1:1 mixture of 0.1% TFA in water and acetonitrile to final concentrations of 60 µM, 20 µM, and 2 µM (6 µM, 2 µM, and 0.2 µM for 7f or 0.6 µM, 0.2 µM, and 0.02 µM for 7g).
Analytical reversed-phase UHPLC analyses were performed on Thermo Scientific Dionex UltiMate 3000 modular system (Thermo Fisher Scientific Inc., MA, USA). Waters Acquity UPLC® HSS C18 SB column (2.1 × 50 mm, 1.8 μm; Waters, Milford, MA, USA) was used at T […]
Mobile phase consisted of 0.1% trifluoroacetic acid in ultrapure water (solvent A) and acetonitrile […]
The obtained data was processed in Chromeleon CDS software (Thermo Fisher Scientific Inc., […]
Analytical method was tested for accuracy, precision and linear rang. Accuracy was […]
(or 2 or 0.2) µM and 60 (or 6 or 0.6) µM) to their true values and expressed in (%). Values were […]
Method repeatability was determined by calculating the RSD from the separately prepared and analysed quality control samples (n = 3). […] Linearity of the […]
method (1 (or 0.1 or 0.01) µM to 100 (or 10 or 1) µM) was evaluated from the 7-point calibration […]
Solubility was determined in two independent experiments and results were calculated in […]
For `Cc1[nH]c(C(=O)Nc2nc3c(N4CCOCC4C)cc(C(=O)O)cc3s2)c(Cl)c1Cl` (stereo not drawn) [7b, 2-(3,4-Dichloro-5-methyl-1H-pyrrole-2-carboxamido)-4-(3-methylmorpholino)benzo[d]thiazole-6-carboxylic Acid], the Recovery is 100.1%.

`Cc1[nH]c(C(=O)Nc2nc3c(N4CCOC[C@H]4C)cc(C(=O)O)cc3s2)c(Cl)c1Cl` [7c, (R)-2-(3,4-Dichloro-5-methyl-1H-pyrrole-2-carboxamido)-4-(3-methylmorpholino)benzo[d]thiazole-6-carboxylic Acid] registered a Recovery of 99.6%.

In the case of `Cc1[nH]c(C(=O)Nc2nc3c(N4CCOC[C@@H]4C)cc(C(=O)O)cc3s2)c(Cl)c1Cl` [7d, (S)-2-(3,4-Dichloro-5-methyl-1H-pyrrole-2-carboxamido)-4-(3-methylmorpholino)benzo[d]thiazole-6-carboxylic Acid], the Recovery is reported as 110.7%.

`Cc1[nH]c(C(=O)Nc2nc3c(N4CCOC(C)C4)cc(C(=O)O)cc3s2)c(Cl)c1Cl` (stereo not drawn) [7e, 2-(3,4-Dichloro-5-methyl-1H-pyrrole-2-carboxamido)-4-(2-methylmorpholino)benzo[d]thiazole-6-carboxylic Acid] gave a Recovery of 114.5%.

On to `Cc1[nH]c(C(=O)Nc2nc3c(N4CC(C)OC(C)C4)cc(C(=O)O)cc3s2)c(Cl)c1Cl` (stereo not drawn) [7f, 2-(3,4-Dichloro-5-methyl-1H-pyrrole-2-carboxamido)-4-(2,6-dimethylmorpholino)benzo[d]thiazole-6-carboxylic Acid], for which the Recovery is reported as 97.4%.

Take `Cc1[nH]c(C(=O)Nc2nc3c(N4C[C@H]5CC[C@@H](C4)O5)cc(C(=O)O)cc3s2)c(Cl)c1Cl` [7g, 4-((1R,5S)-8-Oxa-3-azabicyclo[3.2.1]octan-3-yl)-2-(3,4-dichloro-5-methyl-1H-pyrrole-2-carboxamido)benzo[d]thiazole-6-carboxylic Acid]: the Recovery worked out at 90.0%.

`COCC1CCCN1c1cc(C(=O)O)cc2sc(NC(=O)c3[nH]c(C)c(Cl)c3Cl)nc12` (stereo not drawn) [7n, 2-(3,4-Dichloro-5-methyl-1H-pyrrole-2-carboxamido)-4-(2-(methoxymethyl)pyrrolidin-1-yl)benzo[d]thiazole-6-carboxylic Acid] registered a Recovery of 104.4%.

The compound `COC[C@@H]1CCCN1c1cc(C(=O)O)cc2sc(NC(=O)c3[nH]c(C)c(Cl)c3Cl)nc12` [7o, (S)-2-(3,4-Dichloro-5-methyl-1H-pyrrole-2-carboxamido)-4-(2-(methoxymethyl)pyrrolidin-1-yl)benzo[d]thiazole-6-carboxylic Acid] gave a Recovery of 90.5%.

`Cc1[nH]c(C(=O)Nc2nc3c(N4CCC(O)CC4)cc(C(=O)O)cc3s2)c(Cl)c1Cl` [7p, 2-(3,4-Dichloro-5-methyl-1H-pyrrole-2-carboxamido)-4-(4-hydroxypiperidin-1-yl)benzo[d]thiazole-6-carboxylic Acid]: the Recovery amounted to 103.8%.

`Cc1[nH]c(C(=O)Nc2nc3c(N4CCC5(CC4)OCCO5)cc(C(=O)O)cc3s2)c(Cl)c1Cl` [7r, 2-(3,4-Dichloro-5-methyl-1H-pyrrole-2-carboxamido)-4-(1,4-dioxa-8-azaspiro[4.5]decan-8-yl)benzo[d]thiazole-6-carboxylic Acid] had a Recovery of 87.7%.

On to `Cc1[nH]c(C(=O)Nc2nc3c(N4CCOCC4)cc(C(=O)O)cc3s2)cc1Cl` [16a, 2-(4-Chloro-5-methyl-1H-pyrrole-2-carboxamido)-4-morpholinobenzo[d]thiazole-6-carboxylic Acid], for which the Recovery was 105.1%.

For the compound `Cc1[nH]c(C(=O)Nc2nc3c(N4CCOCC4)cc(C(=O)O)cc3s2)cc1F` [16b, 2-(4-Fluoro-5-methyl-1H-pyrrole-2-carboxamido)-4-morpholinobenzo[d]thiazole-6-carboxylic Acid], the Recovery was found to be 101.6%.
